Laboratory results as given in patent publication US20210223230A1, “Neamine Compositions and Methods of Use Thereof” (President and Fellows of Harvard College, priority 2008, published 2021).

System: ANG
Test: Nuclear translocation of ANG
Type: cell-based
Details: inhibitors tested

For `O=[As]c1ccccc1` (stereo not shown), which “effect on nuclear translocation of ANG” value is on record?
The value was “no detectable effect”.
